## PSTVd stem 15 mutant pool in Nicotiana benthamiana

Region: stem 15 of PSTVd (intermediate strain), upper and lower strand joined, each 5' to 3', the first 9 letters being the upper strand. Wild type: CUGGAGCGAUCGCUUCGG. Varied positions (N): CUGGAGCGAUNGNNUNNG.

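A pool of all variants was put on leaves of three Nicotiana benthamiana plants. Progeny were sequenced from the inoculated region (day 5), the margin of the inoculated leaf (day 10) and systemic leaves (day 12).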

Values are reads per thousand in the sample; higher means more abundant, 0 means not found.
Each value is the mean of three plants.
"Pool" is the share in the plasmid pool used as inoculum, on the same scale.
The inoculated region was read from the minus strand, the other sites from the plus strand.
Samples held 36,693 to 63,082 reads, so the smallest values rest on one or two reads.
The authors trace changes outside the varied positions to PCR and sequencing errors or to mutation in the plant; presence does not show that a variant is infectious alone.
For reference, wild type rose from 10.2 per thousand in the pool to 285, 367, 312 (inoculated region), 785, 865, 782 (leaf margin) and 854, 898, 915 (systemic leaves).

CUGGAGCGAUCGCUUAGG (pool 0.776) gave inoculated region 0.501; leaf margin 0.273; systemic leaves 0.143. CUGGAGCGAUCGAUUUCG (pool 0.840) read inoculated region 0.262; leaf margin 0.0557; systemic leaves 0. With CUGGAGCGAUGGUGUCCG (pool 0.857) the assay gave inoculated region 0.275; leaf margin 0.0349; systemic leaves 0. With CUGGAGCGAUGGUUUUCG (pool 0.840) the assay gave inoculated region 0.274; leaf margin 0.0160; systemic leaves 0. For CUGGAGCGAUUGGAUUGG (pool 0.824) the result was inoculated region 0.267; leaf margin 0.0585; systemic leaves 0. With CUGGAGCGAUUGUCUACG (pool 0.857) the assay gave inoculated region 1.43; leaf margin 0.355; systemic leaves 0.

With CUGGAGCGAUCGAUUUUG (pool 1.37) the assay gave inoculated region 0.581; leaf margin 0.0588; systemic leaves 0.00664. CUGGAGCGAUAGAGUUAG (pool 0.776) gave inoculated region 0.354; leaf margin 0.0381; systemic leaves 0. CUGGAGCGAUAGAAUACG (pool 0.824) read inoculated region 0.308; leaf margin 0.0432; systemic leaves 0. For CUGGAGCGAUGGUGUCAG (pool 0.824) the result was inoculated region 0.256; leaf margin 0.0182; systemic leaves 0. CUGGAGCGAUGGAGUUUG (pool 0.954) read inoculated region 0.235; leaf margin 0.0654; systemic leaves 0. CUGGAGCGAUCGGUUAAG (pool 0.808) gave inoculated region 0.268; leaf margin 0.0260; systemic leaves 0.

With CUGGAGCGAUUGAGUACG (pool 0.808) the assay gave inoculated region 0.320; leaf margin 0.0372; systemic leaves 0. CUGGAGCGAUUGCGUUCG (pool 0.808) gave inoculated region 0.295; leaf margin 0.00528; systemic leaves 0. With CUGGAGCGAUGGCCUGAG (pool 0.954) the assay gave inoculated region 0.337; leaf margin 0.0106; systemic leaves 0. For CUGGAGCGAUAGUAUGGG (pool 0.840) the result was inoculated region 0.229; leaf margin 0.0334; systemic leaves 0. With CUGGAGCGAUCGAAUUAG (pool 0.646) the assay gave inoculated region 0.321; leaf margin 0.0282; systemic leaves 0. For CUGGAGCGAUUGUCUUAG (pool 0.663) the result was inoculated region 1.57; leaf margin 0.398; systemic leaves 0.360.

With CUGGAGCGAUGGGAUAUG (pool 0.970) the assay gave inoculated region 0.365; leaf margin 0.0595; systemic leaves 0. With CUGGAGCGAUAGGUUACG (pool 0.970) the assay gave inoculated region 0.312; leaf margin 0.0298; systemic leaves 0. CUGGAGCGAUUGACUACG (pool 0.954) gave inoculated region 1.21; leaf margin 0.0229; systemic leaves 0. CUGGAGCGAUGGUUUCUG (pool 0.970) read inoculated region 0.302; leaf margin 0.0372; systemic leaves 0. With CUGGAGCGAUGGUAUGGG (pool 0.857) the assay gave inoculated region 0.270; leaf margin 0.0434; systemic leaves 0. CUGGAGCGAUGGAAUUUG (pool 0.889) read inoculated region 0.347; leaf margin 0.0472; systemic leaves 0.

For CUGGAGCGAUCGAUUCUG (pool 0.614) the result was inoculated region 0.388; leaf margin 0.0372; systemic leaves 0. For CUGGAGCGAUCGUCUUCG (pool 0.808) the result was inoculated region 1.59; leaf margin 0.401; systemic leaves 0.

A selection of 2 entries from above:

sequence,pool,inoculated region,leaf margin,systemic leaves
CUGGAGCGAUCGAUUCUG,0.614,0.388,0.0372,0
CUGGAGCGAUCGCUUAGG,0.776,0.501,0.273,0.143

Source: Wu et al. 2024 (doi:10.1371/journal.ppat.1012142), supplementary data.